Experimental data from ChEMBL document CHEMBL5346973 (J Med Chem, 2023).

Sequences of proteins named here, by UniProt entry; tags and fusion partners are left off. Residues count along the entry.
UniProt P04756, 21-457 limits assumed: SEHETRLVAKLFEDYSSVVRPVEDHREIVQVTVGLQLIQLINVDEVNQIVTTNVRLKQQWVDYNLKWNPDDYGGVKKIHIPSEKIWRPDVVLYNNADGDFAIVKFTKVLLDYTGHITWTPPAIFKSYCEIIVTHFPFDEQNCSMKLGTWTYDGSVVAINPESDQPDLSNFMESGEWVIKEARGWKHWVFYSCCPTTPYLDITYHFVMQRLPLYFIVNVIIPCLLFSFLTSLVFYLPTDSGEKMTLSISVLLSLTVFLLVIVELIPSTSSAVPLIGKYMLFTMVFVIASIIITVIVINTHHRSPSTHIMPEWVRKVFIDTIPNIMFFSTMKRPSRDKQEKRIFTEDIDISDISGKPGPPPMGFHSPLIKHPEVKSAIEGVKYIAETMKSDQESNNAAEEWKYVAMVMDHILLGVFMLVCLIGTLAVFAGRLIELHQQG
UniProt P09690, 24-501 partner limits assumed: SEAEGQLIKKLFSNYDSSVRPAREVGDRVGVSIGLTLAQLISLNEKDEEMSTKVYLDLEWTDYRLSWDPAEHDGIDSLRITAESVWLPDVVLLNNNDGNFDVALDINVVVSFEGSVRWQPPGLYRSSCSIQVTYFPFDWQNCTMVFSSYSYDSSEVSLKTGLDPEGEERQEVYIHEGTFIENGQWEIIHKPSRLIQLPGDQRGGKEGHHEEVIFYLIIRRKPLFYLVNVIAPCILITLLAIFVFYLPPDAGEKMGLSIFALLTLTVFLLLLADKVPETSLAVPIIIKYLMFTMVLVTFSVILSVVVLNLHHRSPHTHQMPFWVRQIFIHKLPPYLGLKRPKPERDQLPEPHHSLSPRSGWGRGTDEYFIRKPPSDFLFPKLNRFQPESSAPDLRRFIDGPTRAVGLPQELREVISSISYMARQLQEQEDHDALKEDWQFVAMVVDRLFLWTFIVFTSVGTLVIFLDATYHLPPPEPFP
UniProt P02716, 25-520 partner limits assumed: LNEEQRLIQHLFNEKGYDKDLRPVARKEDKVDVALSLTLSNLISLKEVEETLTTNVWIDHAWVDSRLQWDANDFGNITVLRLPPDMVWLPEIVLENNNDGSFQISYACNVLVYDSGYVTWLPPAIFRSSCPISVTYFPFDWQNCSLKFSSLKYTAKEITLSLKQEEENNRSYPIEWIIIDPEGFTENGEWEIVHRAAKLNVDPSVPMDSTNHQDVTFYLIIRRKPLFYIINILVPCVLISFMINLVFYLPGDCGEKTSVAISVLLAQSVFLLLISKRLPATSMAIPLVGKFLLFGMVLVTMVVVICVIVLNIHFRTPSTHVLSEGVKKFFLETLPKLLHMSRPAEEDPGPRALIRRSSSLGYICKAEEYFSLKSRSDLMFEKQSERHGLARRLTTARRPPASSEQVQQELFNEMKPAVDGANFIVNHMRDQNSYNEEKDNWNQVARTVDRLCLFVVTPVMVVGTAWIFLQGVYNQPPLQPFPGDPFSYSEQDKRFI
UniProt P20782, 21-493 partner limits assumed: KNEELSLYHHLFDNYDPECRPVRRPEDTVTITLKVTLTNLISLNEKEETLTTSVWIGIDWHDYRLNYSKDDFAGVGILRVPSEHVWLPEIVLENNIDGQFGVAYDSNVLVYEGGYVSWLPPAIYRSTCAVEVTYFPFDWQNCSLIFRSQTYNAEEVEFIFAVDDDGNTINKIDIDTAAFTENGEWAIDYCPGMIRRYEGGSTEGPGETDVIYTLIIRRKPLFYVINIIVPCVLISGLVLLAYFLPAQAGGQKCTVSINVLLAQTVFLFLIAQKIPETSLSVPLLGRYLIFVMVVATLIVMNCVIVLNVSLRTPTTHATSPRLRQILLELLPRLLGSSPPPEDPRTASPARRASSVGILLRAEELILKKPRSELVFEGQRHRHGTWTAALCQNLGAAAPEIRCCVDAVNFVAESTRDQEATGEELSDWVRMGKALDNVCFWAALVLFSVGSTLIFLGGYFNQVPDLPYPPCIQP

Legend:
[1] = Selectivity ratio of IC50 for mouse alpha1beta1deltaepsilon nACh receptor to IC50 for rat alpha9alpha10 nACh receptor
[2] = biological target: Nicotinic acetylcholine receptor alpha1/beta1/epsilon/delta (Mus musculus) (UniProt P04756+P09690+P02716+P20782); experiment: Antagonist activity at mouse alpha1beta1deltaepsilon nACh receptor expressed in Xenopus oocyte assessed as inhibition of acetylcholine-induced response at -70 mV holding potential by measuring ratio of IC50 by voltage-clamp based electrophysiological assay relative to GeXIVA; conditions: filed as antagonist

Compound	Ratio IC50 [1]	Ratio IC50 [2]
CC[C@H](C)[C@@H]1NC(=O)[C@H](CCCNC(=N)N)NC(=O)[C@H](CCCNC(=N)N)NC(=O)[C@@H](NC(=O)[C@H](Cc2ccc(O)cc2)NC(=O)[C@H](CCCNC(=N)N)NC(=O)[C@H](CCCNC(=N)N)NC(=O)[C@H](CCCNC(=N)N)NC(=O)[C@H](C)NC(=O)[C@H](CC(=O)O)NC(=O)[C@H](Cc2ccc(O)cc2)NC(=O)[C@@H]2CCCN2C(=O)[C@H](CO)NC(=O)[C@H](CCCNC(=N)N)NC(=O)[C@@H]2CSSC[C@H](NC(=O)[C@H](N)[C@H](C)O)C(=O)N[C@@H](CCCNC(=N)N)C(=O)N[C@@H](CO)C(=O)N[C@@H](CO)C(=O)NCC(=O)N[C@@H](CCCNC(=N)N)C(=O)N[C@@H](Cc3ccc(O)cc3)C(=O)N2)CSSC[C@@H](C(=O)N[C@H](C(=O)O)C(C)C)NC(=O)[C@H](C)NC(=O)[C@H](CC(=O)O)NC(=O)[C@H]([C@@H](C)O)NC1=O	85.6	5.3
CC[C@H](C)[C@@H]1NC(=O)[C@H](CCCNC(=N)N)NC(=O)[C@H](CCCNC(=N)N)NC(=O)[C@@H](NC(=O)[C@H](C)NC(=O)[C@H](CCCNC(=N)N)NC(=O)[C@H](CCCNC(=N)N)NC(=O)[C@H](CCCNC(=N)N)NC(=O)[C@H](CCCNC(=N)N)NC(=O)[C@H](CC(=O)O)NC(=O)[C@H](Cc2ccc(O)cc2)NC(=O)[C@@H]2CCCN2C(=O)[C@H](CO)NC(=O)[C@H](CCCNC(=N)N)NC(=O)[C@@H]2CSSC[C@H](NC(=O)[C@@H](N)[C@@H](C)O)C(=O)N[C@@H](CCCNC(=N)N)C(=O)N[C@@H](CO)C(=O)N[C@@H](CO)C(=O)NCC(=O)N[C@@H](CCCNC(=N)N)C(=O)N[C@@H](Cc3ccc(O)cc3)C(=O)N2)CSSC[C@@H](C(=O)N[C@H](C(=O)O)C(C)C)NC(=O)[C@H](C)NC(=O)[C@H](CC(=O)O)NC(=O)[C@H]([C@@H](C)O)NC1=O	176	5.4
CC[C@H](C)[C@@H]1NC(=O)[C@H](CCCNC(=N)N)NC(=O)[C@H](CCCNC(=N)N)NC(=O)[C@@H](NC(=O)[C@H](Cc2ccc(O)cc2)NC(=O)[C@H](CCCNC(=N)N)NC(=O)[C@H](CCCNC(=N)N)NC(=O)[C@H](CCCNC(=N)N)NC(=O)[C@H](CCCNC(=N)N)NC(=O)[C@H](CC(=O)O)NC(=O)[C@H](Cc2ccc(O)cc2)NC(=O)[C@@H]2CCCN2C(=O)[C@H](CO)NC(=O)[C@H](CCCNC(=N)N)NC(=O)[C@@H]2CSSC[C@H](NC(=O)[C@@H](N)[C@@H](C)O)C(=O)N[C@@H](CCCNC(=N)N)C(=O)N[C@@H](CO)C(=O)N[C@@H](CO)C(=O)NCC(=O)N[C@@H](CCCNC(=N)N)C(=O)N[C@@H](Cc3ccc(O)cc3)C(=O)N2)CSSC[C@@H](C(=O)N[C@H](C(=O)O)C(C)C)NC(=O)[C@H](C)NC(=O)[C@@H](C)NC(=O)[C@H]([C@@H](C)O)NC1=O	255	6.4
CC[C@H](C)[C@@H]1NC(=O)[C@H](C)NC(=O)[C@H](CCCNC(=N)N)NC(=O)[C@@H](NC(=O)[C@H](Cc2ccc(O)cc2)NC(=O)[C@H](CCCNC(=N)N)NC(=O)[C@H](CCCNC(=N)N)NC(=O)[C@H](CCCNC(=N)N)NC(=O)[C@H](CCCNC(=N)N)NC(=O)[C@H](CC(=O)O)NC(=O)[C@H](Cc2ccc(O)cc2)NC(=O)[C@@H]2CCCN2C(=O)[C@H](CO)NC(=O)[C@H](CCCNC(=N)N)NC(=O)[C@@H]2CSSC[C@H](NC(=O)[C@@H](N)[C@@H](C)O)C(=O)N[C@@H](CCCNC(=N)N)C(=O)N[C@@H](CO)C(=O)N[C@@H](CO)C(=O)NCC(=O)N[C@@H](CCCNC(=N)N)C(=O)N[C@@H](Cc3ccc(O)cc3)C(=O)N2)CSSC[C@@H](C(=O)N[C@H](C(=O)O)C(C)C)NC(=O)[C@H](C)NC(=O)[C@H](CC(=O)O)NC(=O)[C@H]([C@@H](C)O)NC1=O	102	10.5
